# Target: MtuLigA (Mycobacterium tuberculosis, UniProt P9WNV1)
# Format: biochemical, M.tuberculosis
# Settings: read-out: IC50 MtuLigA
substance,measurement,value
Doxorubicin [Compound 7],IC50,46 ± 2.5 µM

# Reference: article PMC1316110 (Nucleic Acids Research, 2005)
